PubChem BioAssay AID504761 | Drosophila RNAi Screening Center – 2011

Assay: 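Fly genes whose silencing reduces dengue virus type 2 infection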 (primary screen)
System: D.Mel-2 cells from Drosophila
Knock-down reagent: long dsRNA against Drosophila genes
Conditions: infection with dengue virus type 2; dose and infection time not stated
Measurement: 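Cells stained for dengue envelope protein and imaged; percent of infected cells per well on duplicate plates, ranked by infection, with stained nuclei counted for cell number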
Reading the numbers: infection score: higher = more virus-infected cells; cell count: higher = more cells in the well
Active means: 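Very low infection ranking in both replicate wells (chance probability at most 0.065), then a retest showing infection dropped 1.5-fold or more at p below 0.05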
Meaning of the calls: active = confirmed: knock-down lowers infection; inactive = not picked or not confirmed
The screen tested about 22,000 reagents; below is an unselected part of those that have a named target and a result. Of all reagents, 116 (0.52%) got an active call. 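Calls depend on retest data that are not deposited; infection was ranked per plate without normalising between plates; the unit of the infection score is not given.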 Raw values are not corrected between plates. A plus sign joins genes that one reagent is predicted to hit. The record does not give: the amount of reagent, the time to read-out.

| Gene | dsRNA | infection score, replicate 1 | infection score, replicate 2 | cell count, replicate 1 | cell count, replicate 2 | Call |
| --- | --- | --- | --- | --- | --- | --- |
| Tsp42Ek (Tetraspanin 42Ek) | DRSC06187 | 10.8 | 16.8 | 5753 | 6220 | inactive |
| CG16727 | DRSC15139 | 2.15 | 1.24 | 6463 | 6521 | inactive |
| CG16727 | DRSC26820 | 7.32 | 4.57 | 6641 | 6953 | inactive |
| Cyp311a1 (Cytochrome P450 311a1) | DRSC20239 | 1.45 | 3.68 | 6618 | 6848 | inactive |
| Cyp311a1 (Cytochrome P450 311a1) | DRSC27062 | 14.6 | 5.14 | 6138 | 6853 | inactive |
| tctn + B9d2 | DRSC03160 | 4.03 | 15.4 | 6256 | 3617 | inactive |
| CG31882 | DRSC01084 | 6.38 | 0.53 | 4888 | 4739 | inactive |
| CG32720 | DRSC17529 | 1.3 | 4.44 | 6367 | 6332 | inactive |
| snRNA:U1:95Cc + snRNA:U1:95Cb | DRSC13641 | 4.08 | 3.55 | 6007 | 6389 | inactive |
| CG32104 | DRSC10127 | 3.97 | 6.81 | 6298 | 6329 | inactive |
| CG32104 | DRSC10128 | 3.07 | 4.96 | 5314 | 6595 | inactive |
| dany (distal antenna-young) | DRSC04141 | 4.7 | 7.46 | 6664 | 6796 | inactive |
| Mst36Fb (Male-specific transcript 36Fb) | DRSC28786 | 19.4 | 5.03 | 2067 | 1768 | inactive |
| CG30457 | DRSC06661 | 2.64 | 2.28 | 5713 | 6456 | inactive |
| CG30457 | DRSC28490 | 11.8 | – | 5235 | 386 | inactive |
| Cftr (CF transmembrane conductance regulator) | DRSC15872 | 3.91 | 3 | 6451 | 6637 | inactive |
| Cftr (CF transmembrane conductance regulator) | DRSC24655 | 1.46 | 3.44 | 6580 | 5905 | inactive |
| CG9205 | DRSC08642 | 12.7 | 10.3 | 5718 | 4150 | inactive |
| RpL18A (Ribosomal protein L18A) | DRSC07538 | 6.46 | 2.18 | 1114 | 733 | inactive |
| U2af50 (U2 small nuclear riboprotein auxiliary factor 50) | DRSC20297 | 5.44 | 7.19 | 4470 | 4198 | inactive |
| U2af50 (U2 small nuclear riboprotein auxiliary factor 50) | DRSC22867 | 4.59 | 6.62 | 5620 | 5771 | inactive |
| Rnb (R and B) | DRSC16325 | 2.51 | 1.91 | 5726 | 5981 | inactive |
| Rnb (R and B) | DRSC28764 | – | – | 274 | 401 | inactive |
| Nach | DRSC07478 | 10.9 | 2.18 | 6557 | 641 | inactive |
| TBPH (TAR DNA-binding protein-43 homolog) | DRSC04660 | 11.3 | 0.78 | 5824 | 385 | inactive |
| TBPH (TAR DNA-binding protein-43 homolog) | DRSC28032 | 9.94 | 17.8 | 2877 | 4094 | inactive |
| CG31156 | DRSC15753 | 4.04 | 7.88 | 6382 | 6953 | inactive |
| CG31156 | DRSC15755 | 5.77 | – | 3311 | 316 | inactive |
| CG13024 | DRSC09904 | 2.94 | 2.89 | 6024 | 6480 | inactive |
| CG13024 | DRSC29921 | 14.8 | 5.21 | 6459 | 5987 | inactive |
| nenya | DRSC13838 | 5 | 8.23 | 6354 | 5556 | inactive |
| CG13196 | DRSC06321 | 5.67 | 13.5 | 6719 | 6192 | inactive |

Next part, starting with the last 9 of the part before.
| Gene | dsRNA | infection score, replicate 1 | infection score, replicate 2 | cell count, replicate 1 | cell count, replicate 2 | Call |
| --- | --- | --- | --- | --- | --- | --- |
| Nach | DRSC07478 | 10.9 | 2.18 | 6557 | 641 | inactive |
| TBPH (TAR DNA-binding protein-43 homolog) | DRSC04660 | 11.3 | 0.78 | 5824 | 385 | inactive |
| TBPH (TAR DNA-binding protein-43 homolog) | DRSC28032 | 9.94 | 17.8 | 2877 | 4094 | inactive |
| CG31156 | DRSC15753 | 4.04 | 7.88 | 6382 | 6953 | inactive |
| CG31156 | DRSC15755 | 5.77 | – | 3311 | 316 | inactive |
| CG13024 | DRSC09904 | 2.94 | 2.89 | 6024 | 6480 | inactive |
| CG13024 | DRSC29921 | 14.8 | 5.21 | 6459 | 5987 | inactive |
| nenya | DRSC13838 | 5 | 8.23 | 6354 | 5556 | inactive |
| CG13196 | DRSC06321 | 5.67 | 13.5 | 6719 | 6192 | inactive |
| DAAM (Dishevelled Associated Activator of Morphogenesis) | DRSC18479 | 21.9 | 3.25 | 6509 | 6775 | inactive |
| Rpn2 (Regulatory particle non-ATPase 2) | DRSC16839 | 4.51 | 2.63 | 2107 | 2360 | inactive |
| CG11854 | DRSC14409 | 6.08 | 8.46 | 6485 | 2174 | inactive |
| Tig (Tiggrin) | DRSC03456 | 3.92 | 5.68 | 6231 | 6606 | inactive |
| Tig (Tiggrin) | DRSC28388 | 9.1 | 9.14 | 2636 | 1160 | inactive |
| mRpL38 (mitochondrial ribosomal protein L38) | DRSC19734 | 7.71 | 9.47 | 4866 | 4243 | inactive |
| mRpL38 (mitochondrial ribosomal protein L38) | DRSC29074 | 19.8 | 22.4 | 4144 | 5214 | inactive |
| CG12147 | DRSC12192 | 8.01 | 5.06 | 6216 | 6090 | inactive |
| CG12147 | DRSC30029 | 1.25 | 9.31 | 6616 | 6938 | inactive |
| Lgr4 (Leucine-rich repeat-containing G protein-coupled receptor 4) | DRSC18970 | 2.04 | 2.31 | 6084 | 6677 | inactive |
| Lgr4 (Leucine-rich repeat-containing G protein-coupled receptor 4) | DRSC19884 | 9.16 | 10.1 | 3822 | 6389 | inactive |
| Lgr4 (Leucine-rich repeat-containing G protein-coupled receptor 4) | DRSC24434 | 10.9 | 5.06 | 6790 | 6358 | inactive |
| sim (single-minded) | DRSC17054 | 13.6 | 5 | 6181 | 6640 | inactive |
| sim (single-minded) | DRSC28753 | 13.9 | – | 4632 | 412 | inactive |
| Achl (Achilles) | DRSC06665 | 4.65 | 9.66 | 6758 | 6375 | inactive |
| Achl (Achilles) | DRSC29366 | 22.3 | 21.3 | 5500 | 5494 | inactive |
| brv3 (brivido-3) | DRSC18657 | 0.98 | 9.7 | 6562 | 5133 | inactive |
| brv3 (brivido-3) | DRSC25544 | 4.89 | 2.7 | 6259 | 6443 | inactive |
| aPKC (atypical protein kinase C) | DRSC05515 | 1.79 | 4.1 | 6096 | 5311 | inactive |
| aPKC (atypical protein kinase C) | DRSC07639 | 18 | 22.2 | 5967 | 5572 | inactive |
| aPKC (atypical protein kinase C) | DRSC28133 | 12.9 | 5.63 | 5537 | 6105 | inactive |
| aPKC (atypical protein kinase C) | DRSC29936 | 6.48 | 12.2 | 6122 | 6090 | inactive |
| CG17780 + CG17781 | DRSC15266 | 5 | 17.9 | 6795 | 4337 | inactive |
| CG17780 + CG17781 | DRSC25581 | 1.33 | 0.99 | 6559 | 6450 | inactive |
| CG17780 + CG17781 | DRSC26816 | 18.1 | 26.8 | 6748 | 6202 | inactive |
| rn (rotund) | DRSC12543 | 1.64 | 2.97 | 6510 | 6926 | inactive |
| rn (rotund) | DRSC12544 | 0.26 | 0.35 | 7010 | 6793 | active |
| rn (rotund) | DRSC12546 | 9.25 | 6.21 | 5781 | 6422 | inactive |
| rn (rotund) | DRSC22291 | 2.37 | 20.9 | 5699 | 5458 | inactive |
| rn (rotund) | DRSC25073 | 6.67 | 5.53 | 5786 | 6315 | inactive |
| rn (rotund) | DRSC27211 | 5.62 | 1.77 | 5766 | 6058 | inactive |
